The series deals with Hepatotoxicity.
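Note: Hepatitis-related hepatic side effect score taken from the training data of DILIps, a prediction system for drug-induced liver injury; call rule not given here.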

In turn, GADOVERSETAMIDE displayed a HepSE_hepatitis of 0.

The record behind these values is ChEMBL document CHEMBL1909294, “Translating clinical findings into knowledge in drug safety evaluation--drug induced liver injury prediction system (DILIps)” (PLoS Comput Biol, 2011).
